Measured values from several laboratories, pooled; numbers as filed in NIAID ChemDB.

All rows: tests in culture; organism: Cytomegalovirus; measure: EC50

Rows are shuffled and stem from different studies.

compound,strain,cells,read by,result
CN(C)c1ccnc(SCc2ccc(Cl)cc2)c1C#N,,HEL,cytopathic effect,>5 µg/mL
CC(=O)Nc1cc(S(=O)(=O)O)cc2cc(S(=O)(=O)O)cc(O)c12,AD169,MRC-5,plaque count,>100 µM
Cc1ccc(C)c(C(C)S(=O)(=O)c2cc(C)cc(C)[n+]2[O-])c1,,HEL,cytopathic effect,14 µg/mL
CC(=O)OCCOCN1c2nc(Cc3ccccc3)[nH]c2C(N)=NS1(=O)=O,AD169,HEL,plaque count,>50 µg/mL
Nc1ncnc2c1ncn2[C@@H]1C=C(CO)[C@@H](O)[C@H]1O,DAVIS,HEL,cytopathic effect,0.4 µg/mL
C#C[C@H](O)C1=C[C@@H](n2cnc3c(N)ncnc32)[C@H](O)[C@@H]1O,DAVIS,HEL,cytopathic effect,>50 µg/mL
Cc1ccc(C)c(C(Cc2ccccc2)S(=O)(=O)c2cccc[n+]2[O-])c1,,HEL,cytopathic effect,6.7 µg/mL
CC1(C)[C@@H](CCO)C[C@H]1n1nnc2c(Cl)nc(N)nc21,DAVIS,HEL,plaque count,>50 µg/mL
Nc1ncnc2c1ncn2C[C@@H](CO)OCP(=O)(O)O,DAVIS,HEL,plaque count,0.2 µg/mL
O=C(O)P(=O)(O)O,295,MRC-5,,143.2 µM
Cc1ccccc1C(c1ccccc1)S(=O)(=O)c1cccc[n+]1[O-],,HEL,cytopathic effect,11.5 µg/mL
NC1=NS(=O)(=O)N(Cc2ccccc2)c2nc(-c3ccc(Cl)cc3)[nH]c21,AD169,HEL,plaque count,>5 µg/mL
Cc1ccc(C)c(C(CCCCCCBr)S(=O)(=O)c2cccc[n+]2[O-])c1,,HEL,cytopathic effect,>20 µg/mL
Cc1cc(N2CCCC2)c2ncc(CSCCc3ccccc3)n2c1,AD169,,plaque count,20 µg/mL
Nc1nc2c(ncn2COCCO)c(=O)[nH]1,AD169,HEL,plaque count,30 µg/mL
C=C[C@H](O)C1=C[C@@H](n2cnc3c(N)ncnc32)[C@H](O)[C@@H]1O,AD169,HEL,cytopathic effect,>50 µg/mL
Nc1nc(N)c2ncn([C@H]3CCC[C@H]3CO)c2n1,DAVIS,HEL,plaque count,>50 µg/mL
Cc1cn([C@@H]2O[C@H](CO)[C@@H](O)[C@@H]2F)c(=O)[nH]c1=O,DAVIS,HEL,plaque count,0.7 µg/mL
Nc1ncc2ncn([C@H]3CCC[C@H]3CO)c2n1,DAVIS,HEL,plaque count,>20 µg/mL
CC(C)CS[C@@H]1C=C[C@H](n2cnc3c(N)ncnc32)C1,AD169,HEL,cytopathic effect,16 µg/mL
Nc1ccn(C[C@@H](CO)OCP(=O)(O)O)c(=O)n1,AD169,HEL,cytopathic effect,0.2 µg/mL
O=S(=O)(Cc1ccc(F)cc1)c1cccc[n+]1[O-],,HEL,cytopathic effect,>20 µg/mL
Nc1nc2c(ncn2[C@H]2CCC[C@H]2CO)c(=O)[nH]1,DAVIS,HEL,plaque count,>50 µg/mL
O=C(CCCCCCCCC(=O)Nc1cc(S(=O)(=O)O)cc2cc(S(=O)(=O)O)cc(O)c12)Nc1cc(S(=O)(=O)O)cc2cc(S(=O)(=O)O)cc(O)c12,Isolate T-156,MRC-5,plaque count,48 µM
Cc1ccc(C)c(CS(=O)(=O)c2c(O)ccc[n+]2[O-])c1,,HEL,cytopathic effect,>50 µg/mL
CC1(C)[C@@H](CCO)C[C@H]1n1cnc2c(=O)[nH]cnc21,AD169,HEL,plaque count,>50 µg/mL
Cc1ccc(C(=O)Nc2ccc(S(=O)(=O)O)c3cc(S(=O)(=O)O)cc(S(=O)(=O)O)c23)cc1NC(=O)c1cccc(NC(=O)Nc2cccc(C(=O)Nc3cc(C(=O)Nc4ccc(S(=O)(=O)O)c5cc(S(=O)(=O)O)cc(S(=O)(=O)O)c45)ccc3C)c2)c1,Isolate T-1095,MRC-5,plaque count,25 µM
CCOc1ccccc1CS(=O)(=O)c1cccc[n+]1[O-],,HEL,cytopathic effect,>20 µg/mL
Nc1ncnc2c1ncn2C[C@H]1COP(=O)(O)CO1,DAVIS,HEL,plaque count,0.15 µg/mL
CC[C@@H](O)C1=C[C@@H](n2cnc3c(N)ncnc32)[C@H](O)[C@@H]1O,AD169,HEL,cytopathic effect,>50 µg/mL
N#C/C(=C/c1c(Cl)cccc1Cl)S(=O)(=O)c1cccc[n+]1[O-],,HEL,cytopathic effect,>20 µg/mL
Nc1nc2c(ncn2COC2COP(=O)(O)OC2)c(=O)[nH]1,DAVIS,HEL,plaque count,1 µg/mL
N#Cc1ccccc1CS(=O)(=O)c1cccc[n+]1[O-],,HEL,cytopathic effect,>5 µg/mL
Nc1nc2c(ncn2COC(CO)CO)c(=O)[nH]1,AD169,HEL,plaque count,0.7 µg/mL
Cc1ccc(C)c(C(C)Sc2cccc[n+]2[O-])c1,,HEL,cytopathic effect,>20 µg/mL
CC1(C)[C@@H](CCO)C[C@H]1n1nnc2c(N)ncnc21,AD169,HEL,plaque count,>20 µg/mL
CCC(c1cc(C)ccc1C)S(=O)(=O)c1c(C)ccc[n+]1[O-],,HEL,cytopathic effect,0.83 µg/mL
O=C(CCCCCCCCCCC(=O)Nc1cc(S(=O)(=O)O)cc2cc(S(=O)(=O)O)cc(O)c12)Nc1cc(S(=O)(=O)O)cc2cc(S(=O)(=O)O)cc(O)c12,AD169,MRC-5,plaque count,>100 µM
CC1(C)[C@@H](CCO)C[C@H]1n1cnc2c(N)nc(N)nc21,AD169,HEL,plaque count,>50 µg/mL
O=[N+]([O-])c1ccc(SCc2ccccc2)nc1,,HEL,cytopathic effect,>5 µg/mL

A second listing of 6 rows from above:

| compound | strain | cells | read by | result |
|---|---|---|---|---|
| Nc1nc(N)c2ncn([C@H]3CCC[C@H]3CO)c2n1 | DAVIS | HEL | plaque count | >50 µg/mL |
| Cc1ccc(C)c(C(CCCCCCBr)S(=O)(=O)c2cccc[n+]2[O-])c1 |  | HEL | cytopathic effect | >20 µg/mL |
| CCOc1ccccc1CS(=O)(=O)c1cccc[n+]1[O-] |  | HEL | cytopathic effect | >20 µg/mL |
| CC1(C)[C@@H](CCO)C[C@H]1n1nnc2c(N)ncnc21 | AD169 | HEL | plaque count | >20 µg/mL |
| Cc1cc(N2CCCC2)c2ncc(CSCCc3ccccc3)n2c1 | AD169 |  | plaque count | 20 µg/mL |
| CC1(C)[C@@H](CCO)C[C@H]1n1nnc2c(Cl)nc(N)nc21 | DAVIS | HEL | plaque count | >50 µg/mL |

Blank or dashed fields: not listed here. ECn: concentration that inhibits the pathogen or its effect by n%.